{"source": "paper PMC9606073", "about": "(Immunity, 2022)", "binders": {"B1": {"name": "M8a-3 IgG (antibody, V domains shown)", "VH": "QVQLQQPGAELVLPGASVKLSCKASGYTFTNYWMHWVKQRPGHGLEWIGEIDPFDTYIKINQKFKGKSTLTVDTSSSTAYMQLSSLTSEDSAVYYCARPDSSGYPVYFDYWGQGTTLTVSS", "VL": "DIVMTQSHKFMSTSVGDRVSITCKASQDVGTYIAWYQQKPGQSPKLLIYWASTRHTGVPDRFTGSGSGTNYTLTISSVQAEDLALYHCQQHYSTPYTFGGGTKLEIK", "notes": "copies: 2 + 2"}, "B2": {"name": "M8a-3 IgG (antibody, V domains shown)", "VH": "QVQLQQPGAELVLPGASVKLSCKASGYTFTNYWMHWVKQRPGHGLEWIGEIDPFDTYIKINQKFKGKSTLTVDTSSSTAYMQLSSLTSEDSAVYYCARPDSSGYPVYFDYWGQGTTLTVSS", "VL": "DIVMTQSHKFMSTSVGDRVSITCKASQDVGTYIAWYQQKPGQSPKLLIYWASTRHTGVPDRFTGSGSGTNYTLTISSVQAEDLALYHCQQHYSTPYTFGGGTKLEIK", "notes": "copies: 2 + 2"}, "B3": {"name": "C118 IgG (antibody, V domains shown)", "VH": "QVQLVESGGGVVQPGRSLRLSCAASGFTFSNYAMHWVRQAPGKGLEWVAVISYDGSNKYYADSVKGRFTISRDNSKNTLYLQMNSLRAEDTAIYYCASGYTGYDYFVRGDYYGLDVWGQGTTVTVSS", "VL": "QPVLTQSPSASASLGASVKLTCTLSSGHSSYAIAWHQQQPEKGPRYLMKLNTDGSHSKGDGIPDRFSGSSSGAERYLTISSLQSEDEADYYCQTWGTGILVFGGGTKLTVL", "notes": "copies: 2 + 2"}, "B4": {"name": "M8a-31 IgG (antibody, V domains shown)", "VH": "EVQLKQSVAELVRPGASVKVSCTASGFNIKNIYMHWVKQRPEQGLDWIGRIDPANGNSRYAPKFQDKATITADTSSNTAYLQLSSLTSEDTAIYYCADEGWGFANWGQGTLVTVSA", "VL": "DIVMTQSPSSLTVTAGEKVTMSCKSSQSLLNSGNQKNYLTWYQQKVGQPPKLLIYWASTRDPGVPDRFTGSGFGTDFTLTISSVQAEDLAVYYCQNDYSYPLTFGAGTKVELK", "notes": "copies: 2 + 2"}, "B5": {"name": "M8a-34 IgG (antibody, V domains shown)", "VH": "QVQLQQPGAELVKPGASVKMSCKASGYTFITYWITWVKQRPGQGLEWIGDIYPGGGRTNYNEKFKSKATLTVDTSSSTAYMQLRSLTSEDSAVYYCARYDGNYVGYYYAMDYWGQGTSVTVSS", "VL": "DIVLTQSPVSLAVSLGQRATISCRASESVDFYGNSFIYWYQQKPGQAPKLLIYRASNLESGIPARFSGSGSRTDFTLTIHPVEADDVATYYCQQSIEDPRTFGGGTKLEIK", "notes": "copies: 2 + 2"}, "B6": {"name": "M8a-6 IgG (antibody, V domains shown)", "VH": "QVQLQQPGTELVMPGASVKLSCKTSGYTFTHYWMHWVKQRPGEGLEWIGEIAPSDNYVKYNQKFKGKSTLSVDRSSSTAYMQLSSLTSEDSAVYFCARPDNSGYPVYFDYWGQGTSLTVSS", "VL": "DIVMTQSQKFMSTSLGDRVSISCKASQDVGTTVAWYQQKPGQSPKLLIYWASTRHTGVPDRFTGTGSGTDYTLTISSVAAEDLALYYCQQHYNTPYTFGGGTKLEIE", "notes": "copies: 2 + 2"}}, "details_in_all_cases": "both partners purified", "key": {"SHC014-CoV RBD [1]": {"target": "SHC014-CoV RBD (Bat SARS-like coronavirus RsSHC014, UniProt U5WLK5)", "experiment": "SPR"}, "Rs4081-CoV RBD [2]": {"target": "Rs4081-CoV RBD (Rs4081 bat sarbecovirus (KY417143), UniProt A0A2D1PX44, strain)", "experiment": "SPR"}, "LYRa3 RBD": {"target": "LYRa3 RBD (LYRa3 bat sarbecovirus (AHX37569.1), UniProt A0A023PTS3, strain)", "experiment": "ELISA"}, "C028 RBD": {"target": "C028 RBD (SARS coronavirus C028, UniProt Q4JDM5, strain)", "experiment": "ELISA"}, "Pangolin17-CoV RBD": {"target": "Pangolin17-CoV RBD (Pangolin coronavirus (Pang17), GenBank …, strain)", "experiment": "ELISA"}, "RaTG13-CoV RBD": {"target": "RaTG13-CoV RBD (Bat coronavirus RaTG13 (QHR63300), UniProt A0ABF7PLN6, strain)", "experiment": "ELISA"}, "Rf1-CoV RBD": {"target": "Rf1-CoV RBD (Bat SARS CoV Rf1/2004, UniProt Q0QDZ0, strain)", "experiment": "SPR"}, "SHC014-CoV RBD [3]": {"target": "SHC014-CoV RBD (Bat SARS-like coronavirus RsSHC014, UniProt U5WLK5)", "experiment": "ELISA"}, "Rs4081-CoV RBD [4]": {"target": "Rs4081-CoV RBD (Rs4081 bat sarbecovirus (KY417143), UniProt A0A2D1PX44, strain)", "experiment": "ELISA"}}, "data": [{"binder": "B1", "values": [{"measurement": "Kd", "setting": "SHC014-CoV RBD [1]", "result": 0.48, "unit": "nM"}, {"measurement": "koff", "setting": "SHC014-CoV RBD [1]", "result": 0.0002, "unit": "s⁻¹"}, {"measurement": "kon", "setting": "SHC014-CoV RBD [1]", "result": 410000, "unit": "M⁻¹ s⁻¹"}, {"measurement": "Kd", "setting": "Rs4081-CoV RBD [2]", "result": 14, "unit": "nM"}, {"measurement": "koff", "setting": "Rs4081-CoV RBD [2]", "result": 0.0019, "unit": "s⁻¹"}]}, {"binder": "B2", "values": [{"measurement": "binding result", "setting": "LYRa3 RBD", "result": "binds"}, {"measurement": "binding result", "setting": "C028 RBD", "result": "binds"}, {"measurement": "binding result", "setting": "Pangolin17-CoV RBD", "result": "binds"}, {"measurement": "binding result", "setting": "RaTG13-CoV RBD", "result": "binds"}]}, {"binder": "B3", "values": [{"measurement": "Kd", "setting": "SHC014-CoV RBD [1]", "result": 70, "unit": "nM"}, {"measurement": "koff", "setting": "SHC014-CoV RBD [1]", "result": 0.0089, "unit": "s⁻¹"}, {"measurement": "kon", "setting": "SHC014-CoV RBD [1]", "result": 130000, "unit": "M⁻¹ s⁻¹"}, {"measurement": "Kd", "setting": "Rs4081-CoV RBD [2]", "result": 2.5, "unit": "nM"}, {"measurement": "koff", "setting": "Rs4081-CoV RBD [2]", "result": 0.00018, "unit": "s⁻¹"}, {"measurement": "kon", "setting": "Rs4081-CoV RBD [2]", "result": 72000, "unit": "M⁻¹ s⁻¹"}, {"measurement": "Kd", "setting": "Rf1-CoV RBD", "result": 23, "unit": "nM"}, {"measurement": "koff", "setting": "Rf1-CoV RBD", "result": 0.00096, "unit": "s⁻¹"}, {"measurement": "kon", "setting": "Rf1-CoV RBD", "result": 42000, "unit": "M⁻¹ s⁻¹"}]}, {"binder": "B4", "values": [{"measurement": "binding result", "setting": "LYRa3 RBD", "result": "binds"}, {"measurement": "binding result", "setting": "SHC014-CoV RBD [3]", "result": "binds"}, {"measurement": "binding result", "setting": "C028 RBD", "result": "binds"}, {"measurement": "binding result", "setting": "Rs4081-CoV RBD [4]", "result": "binds"}, {"measurement": "binding result", "setting": "Pangolin17-CoV RBD", "result": "binds"}, {"measurement": "binding result", "setting": "RaTG13-CoV RBD", "result": "binds"}]}, {"binder": "B5", "values": [{"measurement": "binding result", "setting": "LYRa3 RBD", "result": "binds"}, {"measurement": "binding result", "setting": "SHC014-CoV RBD [3]", "result": "binds"}, {"measurement": "binding result", "setting": "C028 RBD", "result": "binds"}, {"measurement": "binding result", "setting": "Rs4081-CoV RBD [4]", "result": "binds"}, {"measurement": "binding result", "setting": "Pangolin17-CoV RBD", "result": "binds"}, {"measurement": "binding result", "setting": "RaTG13-CoV RBD", "result": "binds"}]}, {"binder": "B6", "values": [{"measurement": "Kd", "setting": "SHC014-CoV RBD [1]", "result": 545, "unit": "nM"}, {"measurement": "Kd", "setting": "Rs4081-CoV RBD [2]", "result": 3000, "unit": "nM"}, {"measurement": "Kd", "setting": "Rf1-CoV RBD", "result": 710, "unit": "nM"}]}]}
